{
  "source": "paper PMC10112228",
  "biological_target": "His-CcpA (nonphosphorylated) (Streptococcus pneumoniae D39) (UniProt A0A0H2ZQ65)",
  "experiment": "competition with a labelled probe",
  "settings": "100x excess unlabeled Pcps2A as specificity competitor; recombinant protein; residues 1-336; protein details: His-tag (pET14b); label: 32P end-label; probe letters rebuilt from the primers and the genome",
  "note": "For at least one entry, the source does not settle the construct or the ends of the probe. At least one verdict rests on a figure or table, not on a statement of the authors.",
  "data": [
    {"sequence": "CTTTCTGTGAACGTGATTTTTTAAAACGTCTACTCATGATTAACACCTATACATTGAACATCTTACGATTATATCACTTTTTTACGGTAATGTCTACACCTTTTTTCACTATCTGCATCTTTAAGTATCTTAGTAGACTTCCCGCGAACCAAAAATATAGTAAAATGAAATAAGAACATGACAAATTGATCAGGACAGTCAAATCGTTTTCTAACAATATTTTAGAAGCAGATGTGTACTATTCTAGTTTCAATATAATATAGTACACAATGTGGTATAATCTTTTT (double strand) [Pcps2A (-250/+35)]", "values": [
      {"measurement": "binding result", "value": "binds"}
    ]}
  ]
}
